Test system: RSV (Group A, Long Strain)
Assay: Antiviral cytopathic effect (CPE) protection assay, MTT readout
Format: cell-based, human respiratory syncytial virus (RSV)
Details: ratio of MTT TD50 to RSV EC50; NW = no window
Description: HEp-2 cells and RSV (Group A, Long Strain) were obtained from the American Type Culture Collection (Manassas, Va.).
A cytopathic effect (CPE) protection assay was performed to determine the ability of a compound to protect the cells from viral infection and thus the CPE induced by viral infection. 96-Well plates were first seeded with 3×10^3 HEp-2 cells per well in Dulbecco's modified Eagle's medium (DMEM) containing 10% fetal bovine serum (FBS). One day after the cells were seeded, they were preincubated with serial dilutions of compounds prepared in 100 μL assay medium (DMEM mixed with F12 medium at a 1:1 ratio, supplemented with 2% FBS and 1 mM sodium pyruvate) for 1 hour at 37° C. 100 μL of assay medium containing 0.2 multiplicity of infection (MOI) of RSV was then added to each well of cells. In addition to wells containing infected cells incubated with compounds, each plate also contained replicates of two kinds of controls: (1) Virus control contained cells infected with 0.2 MOI of RSV in assay medium, (2) Uninfected cell control contained cells incubated with assay medium only. After 4 days of incubation at 37° C., the viability of cells was assessed using MTT (Thiazolyl blue tetrazolium bromide, Sigma). A stock solution of MTT, at a concentration of 4 mg/mL in phosphate-buffered saline, was added to all wells at 25 μL per well. Plates were further incubated for 4 hours, and each well was then treated with 50 μL of a solution containing 20% sodium dodecyl sulfate (SDS) and 0.02 N HCl. After an overnight incubation, the plates were measured on a BioTek® microtiter plate reader at wavelengths of 570 nm and 650 nm. The MTT detection is based on the fact that viable (uninfected) cells can reduce the tetrazolium salts into colored formazan products, which can then be quantitated by spectrometry. Based on the spectrometric absorbance of each sample, the percent of protection from CPE, which is an indicator of protection from viral infection, can be calculated for each compound and the 50% effective concentrations (EC50) can be calculated using a nonlinear regression curve fitting equation provided by the GraphPad Prism® 4 software.
Compounds were tested to determine both their antiviral and toxicity to determine their therapeutic window. Determination of the EC50 and TD50 of these active compounds were repeated one additional time to confirm the window.

Row | SMILES | Window (TD50/EC50)
1 | CC(Cc1cccs1)N(Cc1cccn1-c1nccs1)Cc1cccn1-c1nccs1 (stereo not shown) [Example 64, N,N-bis{[1-(1,3-thiazol-2-yl)-1H-pyrrol-2-yl]methyl}-1-(thiophen-2-yl)propan-2-amine] | 17
2 | c1cncc(C2(CN(Cc3cccn3-c3nccs3)Cc3cccn3-c3nccs3)CC2)c1 [Example 65, 1-[1-(pyridin-3-yl)cyclopropyl]-N,N-bis{[1-(1,3-thiazol-2-yl)-1H-pyrrol-2-yl]methyl}methanamine] | 273
3 | c1cc(CN(CCC2(c3ccncc3)CC2)Cc2cccn2-c2nccs2)n(-c2nccs2)c1 [Example 66, 2-[1-(pyridin-4-yl)cyclopropyl]-N,N-bis{[1-(1,3-thiazol-2-yl)-1H-pyrrol-2-yl]methyl}ethanamine] | 73
4 | N#Cc1cc(CN(Cc2cccn2-c2nccs2)Cc2cccn2-c2nccs2)cs1 [Example 67, 4-[(bis{[1-(1,3-thiazol-2-yl)-1H-pyrrol-2-yl]methyl}amino)methyl]thiophene-2-carbonitrile] | >389
